Our source for the Kd values is publication PMC3179954, “A bacterial PriB with weak single-stranded DNA binding activity can stimulate the DNA unwinding activity of its cognate PriA helicase” (BMC Microbiology, 2011).

Data set [1] addresses T1, PriA helicase (Neisseria gonorrhoeae) (UniProt Q5F6V8).
T1 sequence (looked up, limits assumed): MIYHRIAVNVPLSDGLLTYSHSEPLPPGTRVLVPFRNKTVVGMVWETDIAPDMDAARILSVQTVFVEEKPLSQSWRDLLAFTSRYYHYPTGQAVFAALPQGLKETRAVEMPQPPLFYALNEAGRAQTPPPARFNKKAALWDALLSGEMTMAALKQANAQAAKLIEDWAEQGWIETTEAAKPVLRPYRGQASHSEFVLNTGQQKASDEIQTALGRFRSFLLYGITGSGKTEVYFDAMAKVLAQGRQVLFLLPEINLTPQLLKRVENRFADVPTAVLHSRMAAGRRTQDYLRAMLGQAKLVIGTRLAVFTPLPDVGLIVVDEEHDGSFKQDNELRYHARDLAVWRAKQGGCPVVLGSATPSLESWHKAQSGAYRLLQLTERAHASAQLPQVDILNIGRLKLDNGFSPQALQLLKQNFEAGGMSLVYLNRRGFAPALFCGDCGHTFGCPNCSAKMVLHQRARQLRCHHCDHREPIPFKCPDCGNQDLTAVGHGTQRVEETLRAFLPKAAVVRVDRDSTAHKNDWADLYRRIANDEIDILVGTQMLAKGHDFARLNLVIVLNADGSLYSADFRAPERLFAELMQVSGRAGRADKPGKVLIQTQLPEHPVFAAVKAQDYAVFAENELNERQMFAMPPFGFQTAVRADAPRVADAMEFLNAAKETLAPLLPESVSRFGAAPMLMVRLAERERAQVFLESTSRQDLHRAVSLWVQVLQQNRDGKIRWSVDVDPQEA
As to the kind of experiment: fluorescence polarization. As to conditions: 20 mM Tris-HCl pH 8, 10% glycerol, 50 mM NaCl, 1 mM 2-mercaptoethanol, 0.1 mg/ml BSA, 1 nM fluorescein-labeled DNA, 25 C; recombinant protein; label: 3' fluorescein on S5 (nascent lagging strand); letters put together from the description. A general note: In fluorescence polarisation assays a small probe gives low polarisation when free and higher when bound to something large.

The target of data set [2] is T2, PriB (Neisseria gonorrhoeae) (UniProt Q5F924).
T2 sequence (looked up, limits assumed): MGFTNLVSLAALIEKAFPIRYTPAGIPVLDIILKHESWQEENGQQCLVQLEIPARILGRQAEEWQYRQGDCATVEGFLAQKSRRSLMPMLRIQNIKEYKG
In words: fluorescence polarization. The conditions noted are these: 20 mM Tris-HCl pH 8, 10% glycerol, 50 mM NaCl, 1 mM 2-mercaptoethanol, 0.1 mg/ml BSA, 1 nM fluorescein-labeled DNA, 25 C; recombinant protein; label: 3' fluorescein on S5 (nascent lagging strand); letters put together from the description.

As usually defined, the Kd is a measure of binding affinity in units of concentration.

For at least one entry, the source does not settle the construct or the ends of the probe. Where a protein sequence is shown, tags need not be part of it.

Turning to “GTCGGATCCTCTAGACAGCTCCATGATCACTGGCACTGGTAGAATTCGGC / GCCGAATTCTACCAGTGCCAGTGAT / AACGTCATAGACGATTACATTGCTACATGGAGCTGTCTAGAGGATCCGAC / TAGCAATGTAATCGTCTATGACGTT [Fork 2]”, the dissociation constant (Kd) in data set [1] amounted to 134 nM; in data set [2] it was 690 nM.
